Compound potency records, mixed from different reports. Data source: NIAID ChemDB in PubChem.

Shared fields: growth or infection tests; agent: HIV-1; read-out: EC50

Neighbouring rows are from separate reports. ECn: concentration that inhibits the pathogen or its effect by n%. Two numbers with a dash give a range or band.

Nc1nc2c(ncn2[C@@H]2O[C@H](CO)[C@H](F)[C@H]2O)c(=O)[nH]1 ; read by: cytopathic effect ; cells: MT-4 ; result: >490 µM
O=C(NCc1c(F)cc(F)nc1F)C1=CN2C[C@H]3O[C@@H]4CC[C@@H](C4)N3C(=O)C2C(=O)C1=O ; strain or isolate: IIIB ; read by: XTT ; cells: CEM-SS ; result: 0.118 µM
Cc1cn([C@H]2CO[C@@H](CO)S2)c(=O)[nH]c1=O ; cells: MT-4 ; result: >100 µg/mL
CC1=C(C)CC(COCP(=O)(O)O)(n2ccc(N)nc2=O)C1 ; read by: XTT ; cells: MT-4 ; result: 99 µM
C[C@H]1CO[C@@H]2CN3C=C(C(=O)NCc4cn5cc(Cl)sc5n4)C(=O)C(=O)C3C(=O)N12 ; strain or isolate: IIIB ; read by: XTT ; cells: CEM-SS ; result: 0.0289 µM
c1ccc(CNCc2ccc(CN3CCCNCCNCCCNCC3)cc2)nc1 ; strain or isolate: NL4-3 ; result: 0.001–0.01 µg/mL
CCOCn1c(Cc2cccc(F)c2)c(C(C)C)c(=O)[nH]c1=O ; strain or isolate: EFV-resistant (K103R V179D P225H) ; read by: MTT ; cells: MT-4 ; result: 56 µM
CC1(C)Cc2c(Br)c(Br)c(Br)c(OCCCN3CCN(c4ccccn4)CC3)c2O1 ; read by: cytopathic effect / MTT ; cells: MT-4 ; result: >47 µM
N#CC1=CC2Nc3ccccc3C2N(c2ccc([N+](=O)[O-])cc2)C1=O ; strain or isolate: 83-2/B1-T20r ; read by: GFP / fluorescence ; cells: HeLa ; changes: Q40K ; result: 0.1 µM
O=C1Nc2cc(Cc3ncncc3F)ccc2[C@@](C#CC2CC2)(C(F)(F)F)N1 ; read by: GFP ; cells: PBMC ; setting: pseudotyped ; result: 0.0214 µM
Cc1cn([C@@H]2CO[C@@H](CO)S2)c(=O)[nH]c1=O ; cells: MT-4 ; result: >100 µg/mL
CC1=C(C)CC(COCP(=O)(O)O)(n2cnc3c(N)ncnc32)C1 ; read by: XTT ; cells: MT-4 ; result: 97 µM
Cc1nccc(CNC(=O)C2=CN3C[C@H]4OC[C@H](C)N4C(=O)C3C(=O)C2=O)n1 ; strain or isolate: IIIB ; read by: XTT ; cells: CEM-SS ; result: 0.0461 µM
C#CCOCn1c(Cc2cccc(F)c2)c(CC)c(=O)[nH]c1=O ; strain or isolate: N119 (Y181C) ; read by: MTT ; cells: MT-4 ; result: >20 µM
C[C@H]1CO[C@@H]2CN3C=C(C(=O)NCc4ccc5[nH]c(=O)[nH]c5c4)C(=O)C(=O)C3C(=O)N12 ; strain or isolate: IIIB ; read by: XTT ; cells: CEM-SS ; result: 0.0174 µM
CCC(=O)C1=C(CCc2ccccc2)NC(=O)NC1c1ccc(O)c(Cl)c1 ; read by: p24 / ELISA ; cells: CEM ; result: >5 µM
C/C(=N\NC(=O)c1ccccc1)c1cn(S(=O)(=O)c2ccccc2)c2ccccc12 ; strain or isolate: IIIB ; read by: syncytia / visual reading ; cells: C8166 ; result: 0.52 µg/mL
C[C@H]1CO[C@@H]2CN3C=C(C(=O)NCc4cnccn4)C(=O)C(=O)C3C(=O)N12 ; strain or isolate: IIIB ; read by: XTT ; cells: CEM-SS ; result: 0.0284 µM
Nc1nc2c(ncn2[C@H]2CS[C@@H](CO)O2)c(=O)[nH]1 ; cells: MT-4 ; result: >100 µg/mL
CCCNc1cccc(C2NC(=O)NC(CC)=C2C(=O)OCC2CCCCC2)c1 ; read by: p24 / ELISA ; cells: CEM ; result: ≤1 µM
Cc1ccc(S(=O)(=O)n2cc(/C=N/NC(=O)c3ccccc3)c3ccccc32)cc1 ; strain or isolate: IIIB ; read by: syncytia / visual reading ; cells: C8166 ; result: 11.02 µg/mL
NCCSSCCN ; strain or isolate: IIIB ; read by: p24 ; cells: PBL ; result: ~50 µM
C/C(=N\NC(=O)c1ccccc1)c1cn(S(=O)(=O)c2ccc(Cl)cc2)c2ccc(C#N)cc12 ; strain or isolate: IIIB ; read by: syncytia / visual reading ; cells: C8166 ; result: 11.72 µg/mL
Nc1ncnc2c1ncn2[C@@H]1CO[C@@H](CO)S1 ; cells: MT-4 ; result: >100 µg/mL
O=S(=O)(O)c1ccc(NS(=O)(=O)c2ccc(-c3ccc(S(=O)(=O)Nc4ccc(S(=O)(=O)O)c5cccc(S(=O)(=O)O)c45)cc3)cc2)c2c(S(=O)(=O)O)cccc12 ; strain or isolate: IIIB ; read by: cytopathic effect ; cells: MT-4 ; result: 18 µg/mL
C[C@H]1CO[C@]23CCC[C@H]2N2C=C(C(=O)NCc4ccc(F)nc4F)C(=O)C(=O)C2CN13 ; strain or isolate: IIIB ; read by: XTT ; cells: CEM-SS ; result: 0.0478 µM
NC(=O)n1c(O)c(C(=O)c2cccs2)c2cc(Cl)ccc21 ; strain or isolate: MN ; read by: p24 ; cells: H9 ; result: 15 µM
C[C@H]1CO[C@@H]2CN3C=C(C(=O)NCc4ccc5c(ccn5C)c4)C(=O)C(=O)C3C(=O)N12 ; strain or isolate: IIIB ; read by: XTT ; cells: CEM-SS ; result: 0.111 µM
CCC1=C(C(=O)OCC2CCCCC2)[C@H](c2ccc([N+](=O)[O-])cc2)NC(=O)N1 ; read by: p24 / ELISA ; cells: CEM ; result: ≤1 µM
CC(C)n1c(CNC(=O)C2=CN3C[C@H]4OC[C@H](C)N4C(=O)C3C(=O)C2=O)nc2ccc(Cl)cc21 ; strain or isolate: IIIB ; read by: XTT ; cells: CEM-SS ; result: 0.0353 µM
O=C(N/N=C/c1cn(S(=O)(=O)c2ccc(Cl)cc2)c2ccccc12)c1ccccc1 ; strain or isolate: IIIB ; read by: syncytia / visual reading ; cells: C8166 ; result: 9.92 µg/mL
Cc1cc(C)c(S(=O)(=O)OCC2OC3OC4C(CO)OC(OC5C(CO)OC(OC6C(CO)OC(OC7C(CO)OC(OC8C(CO)OC(OC9C(C[n+]%10ccccc%10)OC(OC2C(O)C3O)C(O)C9O)C(O)C8O)C(O)C7O)C(O)C6O)C(O)C5O)C(O)C4O)c(C)c1 ; strain or isolate: KK-5(AC) ; cells: PBMC ; result: 180 µg/mL
CCC1=C(C(=O)OCC2CCCCC2)C(c2cccc(Br)c2)NC(=O)N1 ; read by: p24 / ELISA ; cells: CEM ; result: ≤1 µM
CCOCn1c(Cc2cc(C(F)(F)F)cc(C(F)(F)F)c2)c(CC)c(=O)[nH]c1=O ; strain or isolate: N119 (Y181C) ; read by: MTT ; cells: MT-4 ; result: 80 µM
Cc1cc2c(cc1CNC(=O)C1=CN3C[C@H]4OC[C@H](C)N4C(=O)C3C(=O)C1=O)OCCO2 ; strain or isolate: IIIB ; read by: XTT ; cells: CEM-SS ; result: >0.01 µM
C=C(C)COCn1c(Cc2cc(F)ccc2F)c(CC)c(=O)[nH]c1=O ; strain or isolate: EFV-resistant (K103R V179D P225H) ; read by: MTT ; cells: MT-4 ; result: >56 µM
CC(=O)OCC1=C[C@@H]2C(=O)[C@]3(C=C(C)[C@H](OC(C)=O)[C@@]3(O)[C@@H]1OC(C)=O)[C@H](C)C[C@@H]1[C@H]2C1(C)C ; strain or isolate: A012B ; read by: cytopathic effect / MTT ; cells: MT-4 ; result: 0.073 µM
CC1(C)Cc2cccc(OCCCN3CCCCC3)c2O1 ; result: 118 µM
CC1=C(C(=O)OCC2CCCCC2)C(c2ccccc2)NC(=O)N1 ; read by: p24 / ELISA ; cells: CEM ; result: ≤1 µM
Nc1nc2c(ncn2[C@H]2C[C@@H](F)[C@@H](CO)O2)c(=O)[nH]1 ; read by: cytopathic effect ; cells: MT-4 ; result: >500 µM
Cc1nc2ccccc2c(-c2cc(F)c3c(c2C)CCCO3)c1[C@H](OC(C)(C)C)C(=O)O ; strain or isolate: NL4-3 ; read by: luminescence ; cells: MT-4 ; changes: T97A/Y143R ; result: 0.014 µM
CSc1cc(N)nc(S[C@@H](C)c2cc3c(C)coc3cn2)n1 ; strain or isolate: IIIB ; read by: p24 ; cells: MT-4 ; result: <0.004 µM
COc1ccc(S(=O)(=O)n2cc(/C=N/NC(=O)c3ccccc3)c3ccccc32)cc1 ; strain or isolate: IIIB ; read by: syncytia / visual reading ; cells: C8166 ; result: 3.02 µg/mL
CC1(C)CC=C(c2cn(-c3nccc(C(=O)NC4CCC(N5CC6CCC(C5)O6)CC4)n3)c3ccc(F)c([C@H](OC(C)(C)C)C(=O)O)c23)CC1 ; strain or isolate: NL4-3 ; read by: luminescence ; cells: MT-4 ; changes: H171T ; result: 0.054 µM
CCC1=C(C(=O)OCC2CCCCC2)C(c2ccc(C(=O)O)cc2)NC(=O)N1 ; read by: p24 / ELISA ; cells: CEM ; result: >5 µM
CC1CC(C)CN(S(=O)(=O)c2ccccc2[N+](=O)[O-])C1 ; strain or isolate: 12AG ; read by: GFP / fluorescence ; cells: HeLa ; result: 50 µM
O=C1NC(C2CC2)=C(C(=O)OCC2CCCCC2)C(c2cccc([N+](=O)[O-])c2)N1 ; read by: p24 / ELISA ; cells: CEM ; result: >5 µM
CCn1cc(C(=O)O)c(=O)c2cc(F)c(N3CCN(c4ccccc4OC)CC3)c(OC(F)F)c21 ; read by: cytopathic effect ; cells: MT-4 ; result: 0.29 µM

7 of the rows above, restated:

Cc1ccc(S(=O)(=O)n2cc(/C=N/NC(=O)c3ccccc3)c3ccccc32)cc1 ; strain or isolate: IIIB ; read by: syncytia / visual reading ; cells: C8166 ; result: 11.02 µg/mL
Cc1cn([C@H]2CO[C@@H](CO)S2)c(=O)[nH]c1=O ; cells: MT-4 ; result: >100 µg/mL
C[C@H]1CO[C@@H]2CN3C=C(C(=O)NCc4cn5cc(Cl)sc5n4)C(=O)C(=O)C3C(=O)N12 ; strain or isolate: IIIB ; read by: XTT ; cells: CEM-SS ; result: 0.0289 µM
CC1(C)Cc2c(Br)c(Br)c(Br)c(OCCCN3CCN(c4ccccn4)CC3)c2O1 ; read by: cytopathic effect / MTT ; cells: MT-4 ; result: >47 µM
Cc1cc2c(cc1CNC(=O)C1=CN3C[C@H]4OC[C@H](C)N4C(=O)C3C(=O)C1=O)OCCO2 ; strain or isolate: IIIB ; read by: XTT ; cells: CEM-SS ; result: >0.01 µM
C[C@H]1CO[C@@H]2CN3C=C(C(=O)NCc4cnccn4)C(=O)C(=O)C3C(=O)N12 ; strain or isolate: IIIB ; read by: XTT ; cells: CEM-SS ; result: 0.0284 µM
Nc1nc2c(ncn2[C@@H]2O[C@H](CO)[C@H](F)[C@H]2O)c(=O)[nH]1 ; read by: cytopathic effect ; cells: MT-4 ; result: >490 µM